Anti-infective test results gathered from many reports (values: NIAID ChemDB through PubChem).

All rows: enzyme or target tests; organism: HIV-1; target: Integrase; endpoint: IC50

Two numbers with a dash give a range or band. ICn is the concentration giving n% inhibition. Conditions beyond the fields shown may differ between rows. Blank or dashed fields: not listed here.

SMILES	method	strain	value
O=c1ccn2ccn(Cc3cccc(Br)c3)c(=O)c2c1O	ELISA	-	0.01–0.1 µM
CC(=O)Oc1ccc(/C=C/C(=O)Nc2cccc3c(S(=O)(=O)NCCc4ccccc4)cccc23)cc1OC(C)=O	-	-	11.9 µg/mL
CCN1CCn2c(nc(C(=O)NCc3ccc(F)cc3)c(O)c2=O)C(N(C)C(=O)C(=O)N(C)C)C1	ELISA	-	<10 µM
CNC(=O)CNC(=O)c1cn2ccn(Cc3cccc(Cl)c3)c(=O)c2c(O)c1=O	ELISA	-	0.01–0.1 µM
N#C/C(=C\c1ccc(O)c(O)c1)C(=O)NCCCCCCCCCCNC(=O)/C(C#N)=C/c1ccc(O)c(O)c1	3′ processing / substrate cleavage	-	5–10 µM
CC(=O)Oc1ccc(/C=C/C(=O)Nc2cccc3c(S(=O)(=O)Nc4ccccc4)cccc23)cc1OC(C)=O	-	-	>100 µg/mL
CC(=O)N1CCn2c(nc(C(=O)NCc3ccc(F)cc3)c(O)c2=O)C(N(C)Cc2ccccc2)C1	ELISA	-	<10 µM
CN(Cc1ccc(F)c(Cl)c1)C(=O)/C=C(\O)C(=O)O	strand transfer	-	<70 µM
Cc1nnc(C(=O)N(C)C2COCCn3c2nc(C(=O)NCc2ccc(F)cc2)c(O)c3=O)o1	ELISA	-	<10 µM
N#C/C(=C\c1ccc(O)c(O)c1)C(=S)NCc1ccccc1	3′ processing / substrate cleavage	-	10–100 µM
C[C@H](c1ccccc1)N(Cc1ccccc1)C(=O)/C=C(\O)C(=O)O	strand transfer	-	<70 µM
NC(=O)c1cc(=O)c(O)c2n1CCN(Cc1ccc(Cl)c(Cl)c1)C2=O	ELISA	-	0.01–0.1 µM
CC/C=C/C=C/CO[C@H]1O[C@@H](C)[C@H](O)[C@@H](O)[C@H]1O	strand transfer / absorbance	-	16 µM
N#C/C(=C\c1cc(O)c(O)c([N+](=O)[O-])c1)C(=O)NCCCNC(=O)/C(C#N)=C/c1cc(O)c(O)c([N+](=O)[O-])c1	3′ processing / substrate cleavage	-	3.3 µM
CC(=O)Oc1ccc(/C=C/C(=O)Nc2cccc3c(S(=O)(=O)NCCc4ccc(Cl)cc4)cccc23)cc1OC(C)=O	-	-	>100 µg/mL
CN(Cc1csc2ccc(Cl)cc12)C(=O)/C=C(\O)C(=O)O	strand transfer	-	<70 µM
CC/C=C\C=C\CO[C@@H]1O[C@H](CO)[C@@H](O)[C@H](O)[C@H]1O	strand transfer / absorbance	-	21 µM
CN1CCN(C(=O)CN2CCn3c(nc(C(=O)NCc4ccc(F)cc4)c(O)c3=O)C2(C)C)CC1	ELISA	-	<10 µM
O=C(/C=C/c1ccc(O)c(O)c1)Nc1cccc2c(S(=O)(=O)NCc3ccccc3)cccc12	-	-	8.6 µg/mL
CC1(C)NCCn2c1nc(C(=O)NCc1ccc(F)cc1)c(O)c2=O	ELISA	-	<10 µM
CC(C)Cc1cc(=O)c(O)c2n1CCN(Cc1ccc(Cl)c(Cl)c1)C2=O	ELISA	-	0.01–0.1 µM
COc1cccc2c1c(/C(O)=C\C(=O)C(=O)O)cn2Cc1ccc(F)cc1	3′ processing / AlphaScreen	IIIB	2.1 µM
CN(C)C(=O)C(=O)N1CCn2c(nc(C(=O)NCc3ccc(F)cc3)c(O)c2=O)C(N(C)C(=O)C(=O)N(C)C)C1	ELISA	-	<10 µM
CC(=O)Oc1ccc(/C=C/C(=O)Nc2cccc3c(S(=O)(=O)NCCc4cccc(C)c4C)cccc23)cc1OC(C)=O	-	-	>100 µg/mL
O=C(O)/C(O)=C/C(=O)N(CCc1ccc(F)cc1)Cc1ccccc1Cl	strand transfer	-	<70 µM
COC(=O)C(CCSC)n1c(=O)c(O)c2n(c1=O)CCN(Cc1ccc(F)cc1)C2=O	strand transfer	-	<10 µM
CC(C)c1cc(=O)c(O)c2n1CCN(Cc1ccc(Cl)c(Cl)c1)C2=O	ELISA	-	0.01–0.1 µM
COc1cccc2c1c(/C(O)=C/C(=O)C(=O)O)cn2Cc1ccc(F)cc1.COc1cccc2c1c(/C(O)=C/C(=O)C(=O)O)cn2Cc1ccc(F)cc1.[Mg+2].[Mg+2]	strand transfer / AlphaScreen	IIIB	0.08 µM
CN(C)CC1c2nc(C(=O)NCc3ccc(F)cc3)c(O)c(=O)n2CCN1C	ELISA	-	<10 µM
O=C1c2c(O)c(=O)n(CC3(N4CCOCC4)CCCC3)c(=O)n2CCN1Cc1ccc(F)cc1	strand transfer	-	<10 µM
COc1cccc2c1c(/C(O)=C\C(=O)C(=O)O)cn2Cc1cc(F)ccc1F	3′ processing / AlphaScreen	IIIB	2 µM
CC(C)N(Cc1ccc(F)cc1)C(=O)/C=C(\O)C(=O)O	strand transfer	-	>70 µM
N#C/C(=C\c1ccc(O)c(O)c1)C(=O)NCCN1CCN(C(=O)/C(C#N)=C/c2ccc(O)c(O)c2)CC1	3′ processing / substrate cleavage	-	5–10 µM
CC(=O)Oc1ccc(/C=C/C(=O)Nc2cccc3c(S(=O)(=O)NCc4ccccc4)cccc23)cc1OC(C)=O	-	-	>100 µg/mL
N#C/C(=C\c1ccc(O)c(O)c1)C(=O)NCCCNC(=O)/C(C#N)=C/c1ccc(O)c(O)c1	disintegration	-	8.6 µM
CC(=O)Oc1ccc(/C=C/C(=O)Nc2cccc3c(S(=O)(=O)NCCc4ccc(C)cc4)cccc23)cc1OC(C)=O	-	-	>100 µg/mL
CC/C=C\CCO[C@H]1O[C@@H](C)[C@H](O)[C@@H](O)[C@H]1O	strand transfer / absorbance	-	21 µM
O=C(O)/C(O)=C/C(=O)N(Cc1ccccc1)Cc1ccccc1	strand transfer	-	<70 µM
O=C1c2c(O)c(=O)n(CC3CCCCC3)c(=S)n2CCN1Cc1ccc(F)cc1	strand transfer	-	<10 µM